System: planktonic cells of Salmonella Infantis S13, Escherichia coli 683/17, Listeria monocytogenes 149, and Staphylococcus aureus 816
Test: Transmission electron microscopy imaging of planktonic cells
Format: cell-based
Conditions: 8 h

CC(=O)N[C@@H](CS)C(=O)O [NAC, N-Acetyl-L-cysteine]
effect on cell morphology (TEM) (3130 µg/mL (subinhibitory concentration)): formation of clusters of increased cell division without significant changes in the appearance of the cells
effect on cell morphology (TEM) (6250 µg/mL (minimum inhibitory concentration), both Gram-positive and Gram-negative bacteria): cell wall disruption and leakage of intracellular components

— paper PMC8583417, “Evaluation of the Antimicrobial Efficacy of N-Acetyl-L-Cysteine, Rhamnolipids, and Usnic Acid—Novel Approaches to Fight Food-Borne Pathogens” (International Journal of Molecular Sciences, 2021)
